## HIV-1 5' UTR: DMS reactivities by position

Data from the supplement of Ye et al. 2022, doi:10.1038/s41594-022-00746-2.

Sequence of the HIV-1 NL4-3 5' RNA, positions 1 to 437, as numbered in the source:
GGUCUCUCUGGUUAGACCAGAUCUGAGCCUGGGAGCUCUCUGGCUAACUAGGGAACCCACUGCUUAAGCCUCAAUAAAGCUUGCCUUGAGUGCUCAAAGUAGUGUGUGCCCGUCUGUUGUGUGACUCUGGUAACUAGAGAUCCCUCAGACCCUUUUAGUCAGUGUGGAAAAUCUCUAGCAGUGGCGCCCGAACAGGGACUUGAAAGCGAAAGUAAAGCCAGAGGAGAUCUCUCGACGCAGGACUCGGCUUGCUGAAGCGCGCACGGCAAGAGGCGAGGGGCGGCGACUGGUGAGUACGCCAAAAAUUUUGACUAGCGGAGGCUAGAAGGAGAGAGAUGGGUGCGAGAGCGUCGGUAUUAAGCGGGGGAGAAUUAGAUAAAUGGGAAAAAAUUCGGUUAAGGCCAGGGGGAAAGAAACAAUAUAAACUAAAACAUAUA

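Mutant RNA libraries with 1G, 2G or 3G starts, with or without cap, were folded at 37 °C for 30 min. High salt was 300 mM KCl and 5 mM MgCl2, low salt 40 mM KCl and 0.1 mM MgCl2; monomer and dimer were parted on a native gel. Each band was probed in the gel with DMS (170 mM, 15 min, 37 °C), with ethanol as control, and sequenced.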

Scale: normalised reactivity, A and C only; low values point to paired or protected bases, higher values to unpaired ones.
One numbering serves 1G, 2G and 3G.
A position is written with its base.

position | domain | 3G capped high-salt dimer | 3G capped high-salt monomer | 3G capped low-salt dimer | 3G capped low-salt monomer
A388 | none | 0.08 | 0.08 | 0.08 | 0.06
A389 | none | 0.16 | 0.15 | 0.15 | 0.11
A390 | none | 0.92 | 0.97 | 0.90 | 0.97
C393 | none | 0.64 | 0.62 | 0.60 | 0.63
A398 | none | 0.17 | 0.14 | 0.16 | 0.14
A399 | none | 0.22 | 0.16 | 0.23 | 0.18
C402 | none | 0.03 | 0.02 | 0.04 | 0.03
C403 | none | 0.03 | 0.02 | 0.04 | 0.03
A404 | none | 0.27 | 0.18 | 0.29 | 0.24
A410 | none | 0.42 | 0.48 | 0.43 | 0.42
A411 | none | 0.87 | 0.95 | 0.83 | 0.91
A412 | none | 0.51 | 0.53 | 0.49 | 0.52
A414 | none | 0.49 | 0.48 | 0.46 | 0.44
A415 | none | 0.25 | 0.21 | 0.22 | 0.18
A416 | none | 0.48 | 0.45 | 0.43 | 0.45
C417 | none | 0.87 | 0.86 | 0.75 | 0.85
A418 | none | 0.65 | 0.68 | 0.59 | 0.63
A419 | none | 0.47 | 0.50 | 0.46 | 0.48
A421 | none | 0.36 | 0.38 | 0.35 | 0.38
A423 | none | 0.42 | 0.42 | 0.39 | 0.38
A424 | none | 0.33 | 0.34 | 0.31 | 0.27
A425 | none | 0.52 | 0.52 | 0.48 | 0.49
C426 | none | 0.77 | 0.79 | 0.70 | 0.77
A428 | none | 0.10 | 0.12 | 0.10 | 0.11
A429 | none | 0.73 | 0.76 | 0.67 | 0.74
A430 | none | 0.52 | 0.55 | 0.51 | 0.50
A431 | none | 0.58 | 0.61 | 0.56 | 0.56
C432 | none | 0.89 | 0.96 | 0.83 | 0.89
A433 | none | 0.72 | 0.79 | 0.69 | 0.74
A435 | none | 0.48 | 0.52 | 0.47 | 0.50
A437 | none | 0.03 | 0.02 | 0.03 | 0.02

A selection of 4 entries from above:

* A416 -> 3G capped high-salt dimer 0.48; 3G capped high-salt monomer 0.45; 3G capped low-salt dimer 0.43; 3G capped low-salt monomer 0.45
* A428 -> 3G capped high-salt dimer 0.10; 3G capped high-salt monomer 0.12; 3G capped low-salt dimer 0.10; 3G capped low-salt monomer 0.11
* A423 -> 3G capped high-salt dimer 0.42; 3G capped high-salt monomer 0.42; 3G capped low-salt dimer 0.39; 3G capped low-salt monomer 0.38
* A404 -> 3G capped high-salt dimer 0.27; 3G capped high-salt monomer 0.18; 3G capped low-salt dimer 0.29; 3G capped low-salt monomer 0.24